{
  "source": "ChEMBL document CHEMBL1141519",
  "about": "“Pyrogallol and its analogs can antagonize bacterial quorum sensing in Vibrio harveyi” (Bioorg Med Chem Lett, 2008)",
  "test_system": "Vibrio harveyi",
  "test": "Growth inhibition of Vibrio harveyi assessed as time required to double bacterial growth relative to control",
  "format": "functional, organism-based",
  "note": "Active and inactive are the calls of the source. The calls are words filed in the database; no cut-off is given here.",
  "data": [
    {"smiles": "O=[N+]([O-])c1cc([N+](=O)[O-])c(O)c(O)c1O", "values": [
      {"measurement": "Activity", "value": "inactive"}
    ]}
  ]
}
